In publication PMC6273635, “Synthesis and Structure-Activity Relationships of Imidazole-Coumarin Conjugates against Hepatitis C Virus” (Molecules, 2016):
Several values for one entry are separate records, joined by “and”; a condition that tells them apart may be missing. Equal entries are not always repeated. Where two headings read alike, the source gives them in different places.

Tests used:
[1] = system: HCV genotype 1b subgenomic Huh 5-2 replicon system; design: method as in PMID 17977606; conditions: selectivity index, ratio of CC50 to EC50; reference known compounds; ref [11]; cited from earlier work
[2] = system: HCV genotype 1b subgenomic Huh 5-2 replicon system; experiment: Antiviral effect on HCV 1b subgenomic replicon replication in Huh 5-2 cells; format: cell-based, Hepatitis C virus; conditions: selectivity index, ratio of CC50 to EC50
Experimental: The antiviral activity of conjugated compounds 3a–g, 7a–e, 9a,b,d–f, and 11b,e,f in the HCV genotype 1b subgenomic Huh 5-2 replicon system was evaluated according to established procedures. On the basis of the dose-response curves that were obtained, the concentration of a compound that inhibited virus replication by 50% (i.e., EC50) and the concentration of compound that reduced host cell metabolism by 50% (i.e., CC50) were obtained. These values subsequently allowed us to calculate the selectivity index (i.e., SI = CC50/EC50), which is a measure for the therapeutic window of the compound in an assay system. […] The observed antiviral effect of other compounds was most likely related mainly to the pleiotropic or aspecific effect on the host cell.

Structure (SMILES) | SI [1] | SI [2]
COc1cccc2cc(CSc3nc4ccccc4[nH]3)c(=O)oc12 [Compound 12e] | 2.8 | –
O=c1oc2ccc(Br)cc2cc1CSc1nc2ccccc2[nH]1 [Compound 12d] | 10 | –
COc1cccc2cc(CSc3ncc[nH]3)c(=O)oc12 [Compound 3e, 2-[(8′-Methoxycoumarin-3′-yl)methylthio]imidazole] | – | 12–21 and 21
Cn1ccnc1SCc1cc2cc(Cl)ccc2oc1=O [Compound 3g, 1-Methyl-2-[(6′-chlorocoumarin-3′-yl)methylthio]imidazole] | – | 5.1
O=c1oc2ccc(Cl)cc2cc1CSc1nccn1[C@@H]1O[C@H](CO)[C@@H](O)[C@H]1O [Compound 7c, 1-(β-D-Ribofuranos-1″-yl)-2-[(6′-chlorocoumarin-3′-yl)methylthio]imidazole] | – | 6.3
O=c1oc2ccc(Br)cc2cc1CSc1nccn1[C@@H]1O[C@H](CO)[C@@H](O)[C@H]1O [Compound 7d, 1-(β-D-Ribofuranos-1″-yl)-2-[(6′-bromocoumarin-3′-yl)methylthio]imidazole] | – | 5.7
Nc1nc2c(nc(SCc3cc4cc(F)ccc4oc3=O)n2[C@@H]2O[C@H](CO)[C@@H](O)[C@H]2O)c(=O)[nH]1 [Compound 11b, 8-[(6′-Fluorocoumarin-3′-yl)methylthio]guanosine] | – | 1.0
Cc1ccc2oc(=O)c(CSc3nc4c(=O)[nH]cnc4n3[C@@H]3O[C@H](CO)[C@@H](O)[C@H]3O)cc2c1 [Compound 9f, 8-[(6′-Methylcoumarin-3′-yl)methylthio]inosine] | – | 1.0
COc1cccc2cc(CSc3nc4c(=O)[nH]c(N)nc4n3[C@@H]3O[C@H](CO)[C@@H](O)[C@H]3O)c(=O)oc12 [Compound 11e, 8-[(8′-Methoxycoumarin-3′-yl)methylthio]guanosine] | – | 1.0
O=c1oc2ccc(F)cc2cc1CSc1nc2c(=O)[nH]cnc2n1[C@@H]1O[C@H](CO)[C@@H](O)[C@H]1O [Compound 9b, 8-[(6′-Fluorocoumarin-3′-yl)methylthio]inosine] | – | 1.4
O=c1oc2ccc(Br)cc2cc1CSc1nc2c(=O)[nH]cnc2n1[C@@H]1O[C@H](CO)[C@@H](O)[C@H]1O [Compound 9d, 8-[(6′-Bromocoumarin-3′-yl)methylthio]inosine] | – | 1.3
COc1cccc2cc(CSc3nccn3[C@@H]3O[C@H](CO)[C@@H](O)[C@H]3O)c(=O)oc12 [Compound 7e, 1-(β-D-Ribofuranos-1″-yl)-2-[(8′-methoxycoumarin-3′-yl)methylthio]imidazole] | – | 3.5
COc1cccc2cc(CSc3nc4c(=O)[nH]cnc4n3[C@@H]3O[C@H](CO)[C@@H](O)[C@H]3O)c(=O)oc12 [Compound 9e, 8-[(8′-Methoxycoumarin-3′-yl)methylthio]inosine] | – | 1.0
O=c1oc2ccccc2cc1CSc1nccn1[C@@H]1O[C@H](CO)[C@@H](O)[C@H]1O [Compound 7a, 1-(β-D-Ribofuranos-1″-yl)-2-[(coumarin-3′-yl)methylthio]imidazole] | – | 2.2
O=c1oc2ccc(F)cc2cc1CSc1ncc[nH]1 [Compound 3b, 2-[(6′-Fluorocoumarin-3′-yl)methylthio]imidazole] | – | 12–21 and 12
O=c1oc2ccc(Br)cc2cc1CSc1ncc[nH]1 [Compound 3d, 2-[(6′-Bromocoumarin-3′-yl)methylthio]imidazole] | – | 12–21 and 15
Cc1ccc2oc(=O)c(CSc3nc4c(=O)[nH]c(N)nc4n3[C@@H]3O[C@H](CO)[C@@H](O)[C@H]3O)cc2c1 [Compound 11f, 8-[(6′-Methylcoumarin-3′-yl)methylthio]guanosine] | – | 1.0
O=c1oc2ccccc2cc1CSc1ncc[nH]1 [Compound 3a, 2-[(Coumarin-3’-yl)methylthio]imidazole] | – | 4.1
O=c1oc2ccccc2cc1CSc1nc2c(=O)[nH]cnc2n1[C@@H]1O[C@H](CO)[C@@H](O)[C@H]1O [Compound 9a, 8-[(Coumarin-3′-yl)methylthio]inosine] | – | 1.8
O=c1oc2ccccc2cc1CSc1nc2ccccc2[nH]1 [Compound 12a] | 3.4 | –
Cn1ccnc1SCc1cc2ccccc2oc1=O [Compound 3f, 1-Methyl-2-[(coumarin-3′-yl)methylthio]imidazole] | – | 7.3
O=c1oc2ccc(F)cc2cc1CSc1nccn1[C@@H]1O[C@H](CO)[C@@H](O)[C@H]1O [Compound 7b, 1-(β-D-Ribofuranos-1″-yl)-2-[(6′-fluorocoumarin-3′-yl)methylthio]imidazole] | – | 4.7
O=c1oc2ccc(Cl)cc2cc1CSc1ncc[nH]1 [Compound 3c, 2-[(6′-Chlorocoumarin-3′-yl)methylthio]imidazole] | – | 8.8
